# Source: PMC9104152, “Phosphoproteomics Unravel HBV Triggered Rewiring of Host Phosphosignaling Events” (International Journal of Molecular Sciences, 2022)
# Tested on: HepG2-NTCP cells
# Assay: TMT-based phosphoproteome profiling of HBV-infected vs mock HepG2-NTCP (HBV/mock ratio)
# Set-up: species or system human
# Conditions: phosphosite abundance ratio of host protein, HBV-infected vs mock HepG2-NTCP, 7dpi, sheet Up-regulated
row,Molecule,HBV/mock
1,"Q8N1G4 1xPhospho [S/T] (protein, UniProt Q8N1G4 2-583, looked up, phosphorylated) Leucine-rich …: AAAAVSESWPELELAERERRRELLLTGPGLEERVRAAGGQLPPRLFTLPLLHYLEVSGCGSLRAPGPGLAQGLPQLHSLVLRRNALGPGLSPELGPLPALRVLDLSGNALEALPPGQGLGPAEPPGLPQLQSLNLSGNRLRELPADLARCAPRLQSLNLTGNCLDSFPAELFRPGALPLLSELAAADNCLRELSPDIAHLASLKTLDLSNNQLSEIPAELADCPKLKEINFRGNKLRDKRLEKMVSGCQTRSILEYLRVGGRGGGKGKGRAEGSEKEESRRKRRERKQRREGGDGEEQDVGDAGRLLLRVLHVSENPVPLTVRVSPEVRDVRPYIVGAVVRGMDLQPGNALKRFLTSQTKLHEDLCEKRTAATLATHELRAVKGPLLYCARPPQDLKIVPLGRKEAKAKELVRQLQLEAEEQRKQKKRQSVSGLHRYLHLLDGNENYPCLVDADGDVISFPPITNSEKTKVKKTTSDLFLEVTSATSLQICKDVMDALILKMAEMKKYTLENKEEGSLSDTEADAVSGQLPDPTTNPSAGKDGPSLLVVEQVRVVDLEGSLKVVYPSKADLATAPPHVTVVR",1.449
2,"Q09161 1xPhospho [S22(99.7)] (protein, UniProt Q09161 1-790, looked up, phosphorylated S22) Nuclear cap-binding protein …: MSRRRHSDENDGGQPHKRRKTSDANETEDHLESLICKVGEKSACSLESNLEGLAGVLEADLPNYKSKILRLLCTVARLLPEKLTIYTTLVGLLNARNYNFGGEFVEAMIRQLKESLKANNYNEAVYLVRFLSDLVNCHVIAAPSMVAMFENFVSVTQEEDVPQVRRDWYVYAFLSSLPWVGKELYEKKDAEMDRIFANTESYLKRRQKTHVPMLQVWTADKPHPQEEYLDCLWAQIQKLKKDRWQERHILRPYLAFDSILCEALQHNLPPFTPPPHTEDSVYPMPRVIFRMFDYTDDPEGPVMPGSHSVERFVIEENLHCIIKSHWKERKTCAAQLVSYPGKNKIPLNYHIVEVIFAELFQLPAPPHIDVMYTTLLIELCKLQPGSLPQVLAQATEMLYMRLDTMNTTCVDRFINWFSHHLSNFQFRWSWEDWSDCLSQDPESPKPKFVREVLEKCMRLSYHQRILDIVPPTFSALCPANPTCIYKYGDESSNSLPGHSVALCLAVAFKSKATNDEIFSILKDVPNPNQDDDDDEGFSFNPLKIEVFVQTLLHLAAKSFSHSFSALAKFHEVFKTLAESDEGKLHVLRVMFEVWRNHPQMIAVLVDKMIRTQIVDCAAVANWIFSSELSRDFTRLFVWEILHSTIRKMNKHVLKIQKELEEAKEKLARQHKRRSDDDDRSSDRKDGVLEEQIERLQEKVESAQSEQKNLFLVIFQRFIMILTEHLVRCETDGTSVLTPWYKNCIERLQQIFLQHHQIIQQYMVTLENLLFTAELDPHILAVFQQFCALQA",1.607
3,"P29966 1xPhospho [S101(100)] (protein, UniProt P29966 2-332, looked up, phosphorylated S101) Myristoylated alanine-rich …: GAQFSKTAAKGEAAAERPGEAAVASSPSKANGQENGHVKVNGDASPAAAESGAKEELQANGSAPAADKEEPAAAGSGAASPSAAEKGEPAAAAAPEAGASPVEKEAPAEGEAAEPGSPTAAEGEAASAASSTSSPKAEDGATPSPSNETPKKKKKRFSFKKSFKLSGFSFKKNKKEAGEGGEAEAPAAEGGKDEAAGGAAAAAAEAGAASGEQAAAPGEEAAAGEEGAAGGDPQEAKPQEAAVAPEKPPASDETKAAEEPSKVEEKKAEEAGASAAACEAPSAAGPGAPPEQEAAPAEEPAAAAASSACAAPSQEAQPECSPEAPPAEAAE",1.31
4,"Q9C0I1 1xPhospho [S564(100)] (protein, UniProt Q9C0I1 1-747, looked up, phospho S564) Myotubularin-related protein …: MLGKGVVGGGGGTKAPKPSFVSYVRPEEIHTNEKEVTEKEVTLHLLPGEQLLCEASTVLKYVQEDSCQHGVYGRLVCTDFKIAFLGDDESALDNDETQFKNKVIGENDITLHCVDQIYGVFDEKKKTLFGQLKKYPEKLIIHCKDLRVFQFCLRYTKEEEVKRIVSGIIHHTQAPKLLKRLFLFSYATAAQNNTVTDPKNHTVMFDTLKDWCWELERTKGNMKYKAVSVNEGYKVCERLPAYFVVPTPLPEENVQRFQGHGIPIWCWSCHNGSALLKMSALPKEQDDGILQIQKSFLDGIYKTIHRPPYEIVKTEDLSSNFLSLQEIQTAYSKFKQLFLIDNSTEFWDTDIKWFSLLESSSWLDIIRRCLKKAIEITECMEAQNMNVLLLEENASDLCCLISSLVQLMMDPHCRTRIGFQSLIQKEWVMGGHCFLDRCNHLRQNDKEEVPVFLLFLDCVWQLVHQHPPAFEFTETYLTVLSDSLYIPIFSTFFFNSPHQKDTNMGREGQDTQSKPLNLLTVWDWSVQFEPKAQTLLKNPLYVEKPKLDKGQRKGMRFKHQRQLSLPLTQSKSSPKRGFFREETDHLIKNLLGKRISKLINSSDELQDNFREFYDSWHSKSTDYHGLLLPHIEGPEIKVWAQRYLRWIPEAQILGGGQVATLSKLLEMMEEVQSLQEKIDERHHSQQAPQAEAPCLLRNSARLSSLFPFALLQRHSSKPVLPTSGWKALGDEDDLAKREDEFVDLGDV",1.3689
5,"Q5T2T1 1xPhospho [S/Y] (protein, UniProt Q5T2T1 1-576, looked up, phosphorylated) MAGUK p55 subfamily member 7: MPALSTGSGSDTGLYELLAALPAQLQPHVDSQEDLTFLWDMFGEKSLHSLVKIHEKLHYYEKQSPVPILHGAAALADDLAEELQNKPLNSEIRELLKLLSKPNVKALLSVHDTVAQKNYDPVLPPMPEDIDDEEDSVKIIRLVKNREPLGATIKKDEQTGAIIVARIMRGGAADRSGLIHVGDELREVNGIPVEDKRPEEIIQILAQSQGAITFKIIPGSKEETPSKEGKMFIKALFDYNPNEDKAIPCKEAGLSFKKGDILQIMSQDDATWWQAKHEADANPRAGLIPSKHFQERRLALRRPEILVQPLKVSNRKSSGFRKSFRLSRKDKKTNKSMYECKKSDQYDTADVPTYEEVTPYRRQTNEKYRLVVLVGPVGVGLNELKRKLLISDTQHYGVTVPHTTRARRSQESDGVEYIFISKHLFETDVQNNKFIEYGEYKNNYYGTSIDSVRSVLAKNKVCLLDVQPHTVKHLRTLEFKPYVIFIKPPSIERLRETRKNAKIISSRDDQGAAKPFTEEDFQEMIKSAQIMESQYGHLFDKIIINDDLTVAFNELKTTFDKLETETHWVPVSWLHS",1.61
6,"Q8TD19 2xPhospho [S] (protein, UniProt Q8TD19 2-979, looked up, diphosphorylated) Serine/threonine-protein …: SVLGEYERHCDSINSDFGSESGGCGDSSPGPSASQGPRAGGGAAEQEELHYIPIRVLGRGAFGEATLYRRTEDDSLVVWKEVDLTRLSEKERRDALNEIVILALLQHDNIIAYYNHFMDNTTLLIELEYCNGGNLYDKILRQKDKLFEEEMVVWYLFQIVSAVSCIHKAGILHRDIKTLNIFLTKANLIKLGDYGLAKKLNSEYSMAETLVGTPYYMSPELCQGVKYNFKSDIWAVGCVIFELLTLKRTFDATNPLNLCVKIVQGIRAMEVDSSQYSLELIQMVHSCLDQDPEQRPTADELLDRPLLRKRRREMEEKVTLLNAPTKRPRSSTVTEAPIAVVTSRTSEVYVWGGGKSTPQKLDVIKSGCSARQVCAGNTHFAVVTVEKELYTWVNMQGGTKLHGQLGHGDKASYRQPKHVEKLQGKAIRQVSCGDDFTVCVTDEGQLYAFGSDYYGCMGVDKVAGPEVLEPMQLNFFLSNPVEQVSCGDNHVVVLTRNKEVYSWGCGEYGRLGLDSEEDYYTPQKVDVPKALIIVAVQCGCDGTFLLTQSGKVLACGLNEFNKLGLNQCMSGIINHEAYHEVPYTTSFTLAKQLSFYKIRTIAPGKTHTAAIDERGRLLTFGCNKCGQLGVGNYKKRLGINLLGGPLGGKQVIRVSCGDEFTIAATDDNHIFAWGNGGNGRLAMTPTERPHGSDICTSWPRPIFGSLHHVPDLSCRGWHTILIVEKVLNSKTIRSNSSGLSIGTVFQSSSPGGGGGGGGGEEEDSQQESETPDPSGGFRGTMEADRGMEGLISPTEAMGNSNGASSSCPGWLRKELENAEFIPMPDSPSPLSAAFSESEKDTLPYEELQGLKVASEAPLEHKPQVEASSPRLNPAVTCAGKGTPLTPPACACSSLQVEVERLQGLVLKCLAEQQKLQQENLQIFTQLQKLNKKLEGGQQVGMHSKGTQTAKEEMEMDPKPDLDSDSWCLLGTDSCRPSL",1.454
7,"Q15742 2xPhospho [S162(100); S] (protein, UniProt Q15742 1-525, looked up, diphosphorylated, S162) NGFI-A-binding protein 2: MHRAPSPTAEQPPGGGDSARRTLQPRLKPSARAMALPRTLGELQLYRVLQRANLLSYYETFIQQGGDDVQQLCEAGEEEFLEIMALVGMATKPLHVRRLQKALREWATNPGLFSQPVPAVPVSSIPLFKISETAGTRKGSMSNGHGSPGEKAGSARSFSPKSPLELGEKLSPLPGGPGAGDPRIWPGRSTPESDVGAGGEEEAGSPPFSPPAGGGVPEGTGAGGLAAGGTGGGPDRLEPEMVRMVVESVERIFRSFPRGDAGEVTSLLKLNKKLARSVGHIFEMDDNDSQKEEEIRKYSIIYGRFDSKRREGKQLSLHELTINEAAAQFCMRDNTLLLRRVELFSLSRQVARESTYLSSLKGSRLHPEELGGPPLKKLKQEVGEQSHPEIQQPPPGPESYVPPYRPSLEEDSASLSGESLDGHLQAVGSCPRLTPPPADLPLALPAHGLWSRHILQQTLMDEGLRLARLVSHDRVGRLSPCVPAKPPLAEFEEGLLDRCPAPGPHPALVEGRRSSVKVEAEASRQ",1.469
